In the assay the test system is Streptococcus pneumoniae ATCC 6301. As to the kind of experiment: Evaluation of antibacterial activity (MIC, serial dilutions on 96-well microtiter plates). In kind it is cell-based. Particulars: Streptococcus pneumoniae ATCC 6301 (erythromycin A sensitive strain).

As to `CC[C@H]1OC(=O)[C@H](C)[C@@H](O[C@H]2C[C@@](C)(OC)C[C@H](C)O2)[C@H](C)[C@@H](O[C@@H]2O[C@H](C)C[C@H](N(C)C(C)C)[C@H]2O)[C@](C)(O)C[C@@H](C)[C@H](OCC(N)=O)[C@H](C)[C@@H](O)[C@]1(C)O`, the “Antibacterial Activity (MIC, μg/mL)” value was more than 129 µg/mL.
